Measurements published in paper PMC6983991, “Toxicity and Anti-promastigote Activity of Benzoxazinoid Analogs Against Leishmania (Viannia) braziliensis and Leishmania (Leishmania) infantum” (Advanced Pharmaceutical Bulletin, 2019).

Experiments:
[1] = system: Leishmania (L.) infantum (MHOM/BR/74/PP75) promastigotes; assay: Anti-promastigote activity, MTT colorimetric assay; type: cell-based; settings: ratio of CC50 (hamster spleen cells) to GM of IC50; CC50 >400 taken as 400
Method: (§1) Promastigotes of Leishmania (V.) braziliensis (MHOM/BR/75/M2903) and Leishmania (L.) infantum (MHOM/BR/74/PP75) were grown in a biphasic medium. The solid phase was composed of Nicolle–Novy–MacNeals (NNN) medium with 15% defibrillated rabbit blood. Already in the liquid phase, we employed Roswell Park Memorial Institute (RPMI)-1640 (Sigma-Aldrich, St. Louis, USA) or Liver Infusion Tryptose (LIT) medium with 15% fetal bovine serum (Gibco – Thermo Fisher Scientific, Waltham USA), both supplemented with 1% of penicillin-streptomycin antibiotic solutions (10.000 U/mL of penicillin and 10.000 μg/mL of streptomycin; Gibco – Thermo Fisher Scientific, Waltham, USA). Cultures were maintained in an incubator at 25°C until parasites reached logarithmic phase (4 days). Next, the cultures were centrifuged and the pellet was suspended in RPMI-1640 or LIT for counting promastigotes using a Neubauer hemocytometer under an optical microscope (Axiostar Plus Carl Zeiss, Jena, Germany) at 400x magnification. Subsequently, parasites were diluted in RPMI-1640 or LIT medium at a final concentration of 1 x 10^6parasites/mL for use in antileishmanial assays.
(§2) The 50% inhibitory concentration (IC50) against L. (V.) braziliensis and L. (L.) infantum was evaluated by determination of the parasite viability using the colorimetric 3-(4,5-dimethylthiazol-2-yl)-2,5-diphenyltetrazolium bromide (MTT) method.[19] Initially, 100 μL of the promastigote suspension prepared in RPMI-1640 or LIT medium (1 × 10^6cells/mL) was added in each well of the 96-well microplate. Parasites were then treated with two-fold serial dilutions (from 3.12 to 400 µg/mL) of Bex-derived analogs prepared in 10% dimethyl sulfoxide (DMSO) (Sigma-Aldrich, St. Louis, USA) and the microplates were incubated at 25°C for 48 h. Next, 20 μL of MTT solution at 5 mg/mL (Sigma-Aldrich, St. Louis, USA) was added to the parasite cultures and the plates were covered with laminated paper and incubated at 37°C for 4 h. Finally, the plates were centrifuged at 1500 rpm for 15 min at 4°C (Heraeus-Megafuge 11R Centrifuge - Thermo Fisher Scientific, Waltham USA) and the formazan crystals formed were dissolved by the addition of 200 μL 10% DMSO. After further incubation for 5 min at room temperature, absorbance at 570 nm of samples measured using a microplate reader (Metller Toledo, Brazil). Meglumine antimoniate (Glucantime®Sanofi-aventis, France) and amphotericin B (Eurofarma, Brazil) were included as positive controls, and 10% DMSO solution was used as a solvent control. Samples containing RPM1-1640 or LIT only were used to control the sterility of media and samples containing inoculum and medium, but not compounds, were employed as growth controls.

[2] = system: Leishmania (V.) braziliensis (MHOM/BR/75/M2903) promastigotes; assay: Anti-promastigote activity, MTT colorimetric assay; type: cell-based; settings: ratio of CC50 (hamster spleen cells) to GM of IC50; CC50 >400 taken as 400
Method: as §1, §2

Compound | SI L. infantum [1] | SI L. braziliensis [2]
CC1Oc2ccccc2N(O)C1=O (stereo not drawn) [Bex2] | 2.53 | 2.59
CCCC1Oc2cccnc2N(O)C1=O (stereo not drawn) [Pyr4] | 2.17 | 2.01
CCC1Oc2ccccc2N(O)C1=O (stereo not drawn) [Bex3] | 1.16 | 1.12
O=C1COc2cccnc2N1O [Pyr1] | 3.96 | 3.59
CC1Oc2cccnc2N(O)C1=O (stereo not drawn) [Pyr2] | 3.48 | 3.90
C[C@@H]1[C@H](O)[C@@H](C)/C=C/C=C/C=C/C=C/C=C/C=C/C=C/[C@H](O[C@@H]2O[C@H](C)[C@@H](O)[C@H](N)[C@@H]2O)C[C@@H]2O[C@](O)(C[C@@H](O)C[C@@H](O)[C@H](O)CC[C@@H](O)C[C@@H](O)CC(=O)O[C@H]1C)C[C@H](O)[C@H]2C(=O)O [ANFO, Amphotericin B, reference compound] | 2.15 | 2.68
